From patent US20050004011A1, “Compositions and methods for treating bacterial infections with protein-dalbavancin complexes” (priority 2002, published 2005)

Tested on: N,N′-diacetyl-Lys-D-Ala-D-Ala
Assay: ITC of binding to tri-peptide, with and without HSA

Q: Which ΔH (T 25 ° C., [HSA] 34.2 μM) does the source give for `CN[C@H]1C(=O)N[C@@H]2Cc3ccc(cc3)Oc3cc4cc(c3O[C@@H]3O[C@H](C(=O)O)[C@@H](O)[C@H](O)[C@H]3NC(=O)CCCCCCCCC(C)C)Oc3ccc(cc3Cl)[C@@H](O)[C@@H]3NC(=O)[C@H](NC(=O)[C@@H]4NC(=O)[C@@H](NC2=O)c2cc(cc(O)c2Cl)Oc2cc1ccc2O)c1ccc(O)c(c1)-c1c(O[C@H]2O[C@H](CO)[C@@H](O)[C@H](O)[C@@H]2O)cc(O)cc1[C@@H](C(=O)NCCCN(C)C)NC3=O` [Dalbavancin] here?
A: Its ΔH is -20.00 kcal/mol.

Q: And the ΔH (T 25 ° C., [HSA] 104 μM)?
A: The ΔH was -18.60 kcal/mol.

Q: And the ΔS (T 25 ° C., [HSA] 104 μM)?
A: The ΔS was −41.70 eu.

Q: And the ΔH (T 25 ° C., [HSA] 288 μM)?
A: Its ΔH is -21.05 kcal/mol.

Q: What about the ΔS (T 25 ° C., [HSA] 288 μM) of the same molecule?
A: The ΔS was −50.00 eu.

Q: What about the ΔH (T 25 ° C., [HSA] 430 μM) of the same molecule?
A: Its ΔH is -19.50 kcal/mol.

Q: What about the ΔS (T 25 ° C., [HSA] 430 μM) of the same molecule?
A: The ΔS was −44.90 eu.

Q: And the ΔH (T 37 ° C., [HSA] 516 μM)?
A: The ΔH was -26.60 kcal/mol.

Q: What about the ΔS (T 37 ° C., [HSA] 516 μM) of the same molecule?
A: The ΔS was −67.60 eu.
